{"source": "the supplement of paper PMC11997997"}
{"system": "murine bone marrow-derived macrophages", "test": "area under cytotoxicity dose-response curve (AUC (% cytotoxicity x dose, relative)); higher = more cytotoxic", "settings": "duration: 6 days; dose range: 0.13-80 uM, 8 points", "procedure": "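Primary murine bone marrow-derived macrophages in 384-well plates were treated with an 8-point 2.5-fold dose response (80 to 0.13 uM) for 6 days at 37 C. Viability was read by CellTiter-Glo, and % cytotoxicity was taken relative to DMSO and 4% Triton X-100. The AUC of the dose-response was computed in Prism.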"}
{"smiles": "CCOc1ccc(NC(=S)Nc2ccc(OCC)cc2)cc1", "area under cytotoxicity dose-response curve": "< 0"}
{"smiles": "C[CH2][Hg][S]c1ccccc1C(=O)[O-].[Na+]", "area under cytotoxicity dose-response curve": 190}
{"smiles": "Clc1cc2cccnc2c2ncccc12", "area under cytotoxicity dose-response curve": 20.7}
{"smiles": "CN(C/C=C/c1ccccc1)Cc1cccc2ccccc12.Cl", "area under cytotoxicity dose-response curve": 91.3}
